Measured values from several laboratories, pooled; numbers as filed in NIAID ChemDB.

All rows: tests in culture; species: Candida albicans; measure: zone

Two numbers with a dash give a range or band.

N/N=C/c1c(O)[nH]c(=S)[nH]c1=O ; read by: agar diffusion / agar ; tested at: 10000 µg/mL ; result: 0 mm
COc1ccc(CCn2cnc3c(Cl)cccc3c2=O)cc1 ; read by: agar diffusion / agar ; tested at: 10 mg/mL ; strain or isolate: DMBC 005002 ; result: 12.2 mm
O=c1c(O)c(-c2ccc(F)cc2)oc2ccccc12 ; read by: agar diffusion ; tested at: 100 µg/mL ; result: 16 mm
Cc1cc(Cl)nc(NC(c2ccc(O)cc2O)P(=O)(Oc2ccccc2)Oc2ccccc2)n1 ; read by: agar diffusion / agar ; tested at: 10 µg/mL ; result: 15 mm
C[C@H]1[C@H](O)[C@@H](C)/C=C/C=C/C=C/C=C/C=C/C=C/C=C/[C@H](O[C@@H]2O[C@H](C)[C@@H](O)[C@H](N)[C@@H]2O)C[C@@H]2O[C@](O)(C[C@@H](O)C[C@@H](O)CC[C@H](O)[C@@H](O)C[C@@H](O)CC(=O)O[C@H]1C)C[C@H](O)[C@H]2C(=O)O ; read by: agar diffusion / agar ; tested at: 2500 µg/mL ; strain or isolate: PSSCK!7010 ; result: 16.67 mm
Cc1nc2ccc(Br)cc2c(=O)n1-c1ccc(Cl)c(Cl)c1 ; read by: agar diffusion / agar ; tested at: 50 µg/mL ; result: 27.16 mm
O=c1c(O)c(-c2ccc(F)cc2)oc2ccc(Cl)cc12 ; read by: agar diffusion ; tested at: 100 µg/mL ; result: 15 mm
CC(C)c1c(N2CCN(c3ccccc3)CC2)[nH]c(=O)[nH]c1=O ; read by: agar diffusion / agar ; tested at: 200 µg/disc ; strain or isolate: IFO 0583 ; result: <10 mm
CCOC(=O)C1=C(N)Oc2[nH]c(=S)[nH]c(=O)c2C1c1ccc(Cl)cc1 ; read by: agar diffusion / agar ; tested at: 10000 µg/mL ; result: 13 mm
Cc1ccc(N2NOC(=O)C2S(=O)(=O)Nc2nc(-c3c(F)cc(Cl)cc3Cl)cs2)cc1 ; read by: agar diffusion ; tested at: 250 µg/mL ; strain or isolate: MTCC 227 ; result: 21 mm
COc1ccc(-n2cnc3ccccc3c2=O)cc1OC ; read by: agar diffusion / agar ; tested at: 10 mg/mL ; strain or isolate: DMBC 005002 ; result: 10.5 mm
O=c1c2ccccc2ncn1NC(c1ccc(Cl)cc1)P(=O)(Oc1ccccc1)Oc1ccccc1 ; read by: agar diffusion / agar ; tested at: 10 µg/mL ; result: 12 mm
Cc1ccc(-c2oc3ccccc3c(=O)c2O)cc1 ; read by: agar diffusion ; tested at: 100 µg/mL ; result: 14 mm
CCCCc1nc(Cl)c(-c2cc(-c3ccc4ccccc4c3)nc3c2C(=O)c2ccccc2-3)n1Cc1ccccc1 ; read by: agar diffusion ; tested at: 10 µg/disc ; strain or isolate: MTCC 7253 ; result: 10 mm
CCN(CC)N1C(=O)C(C(Sc2ccccc2)c2ccc(C)cc2)SC1=S ; read by: agar diffusion / agar ; tested at: 100 mg/mL ; strain or isolate: ATCC 2091 ; result: 10–15 mm
CCO[C@@H]1C[C@@H]([C@H](C)[C@H]2CC[C@]3(C)C4=C(CC[C@@]23C)[C@]2(C)CC[C@H](O)C(C)(C)[C@H]2CC4)CC[C@@H]1C ; read by: agar diffusion / agar ; tested at: 3 µg/disc ; strain or isolate: MTCC 183 ; result: 20 mm
COC(=O)CCCNC(=O)CSC1=CC(=O)c2cccc(OC)c2C1=O ; read by: agar diffusion ; tested at: 100 µg/well ; strain or isolate: FRCA ; result: 0 mm
Nn1cnc2ccccc2c1=O ; read by: agar diffusion / agar ; tested at: 10 µg/mL ; result: 8 mm
CN[C@@H]1[C@@H](O)[C@@H](O[C@@H]2[C@@H](O)[C@H](O[C@H]3O[C@H](CN)CC[C@H]3N)[C@@H](N)C[C@H]2N)OC[C@]1(C)O ; read by: agar diffusion ; tested at: 10 µg ; strain or isolate: ATCC 10231 ; result: 6 mm
C[C@@H]([C@H]1CC[C@H](C)C(=O)C1)[C@H]1CC[C@]2(C)C3=C(CC[C@@]12C)[C@]1(C)CC[C@H](O)C(C)(C)[C@H]1CC3 ; read by: agar diffusion / agar ; tested at: 1 µg/disc ; strain or isolate: MTCC 183 ; result: 17 mm
COC(=O)[C@H](C)NC(=O)CSC1=CC(=O)c2cccc(OC)c2C1=O ; read by: agar diffusion ; tested at: 100 µg/well ; strain or isolate: FRCA ; result: 0 mm
CCN(CC)N1C(=O)C(C(Sc2ccccc2)c2ccc(OC)cc2)SC1=S ; read by: agar diffusion / agar ; tested at: 100 mg/mL ; strain or isolate: ATCC 2091 ; result: 4–9 mm
O=c1c(O)c(-c2ccco2)oc2ccccc12 ; read by: agar diffusion ; tested at: 100 µg/mL ; result: 18 mm
Cc1cc(Cl)nc(NC(c2ccc(Cl)cc2)P(=O)(Oc2ccccc2)Oc2ccccc2)n1 ; read by: agar diffusion / agar ; tested at: 10 µg/mL ; result: 10 mm
O=C1C2=C(C(=O)c3ccccc31)C1(C(=O)Nc3ccc(Cl)cc31)N1CCCC21 ; read by: agar diffusion ; tested at: 50 µg/mL ; result: 0 mm
CCn1cc(C(=O)O)c(=O)c2ccc(C)nc21 ; read by: agar diffusion ; tested at: 30 µg ; strain or isolate: WILD TYPE ; result: 6 mm
COc1ccccc1-n1c(C)nc2ccc(Br)cc2c1=O ; read by: agar diffusion / agar ; tested at: 50 µg/mL ; result: 17.33 mm
COc1cc(C2c3c(nc[nH]c3=O)Oc3[nH]c(=S)[nH]c(=O)c32)cc(OC)c1OC ; read by: agar diffusion / agar ; tested at: 10000 µg/mL ; result: 11 mm
C=C1CC[C@H]2O[C@]2(C)CC[C@@H]2[C@@H]1CC2(C)C ; read by: agar diffusion ; tested at: 35 µg/disc ; result: 33 mm
O=C1NC(=S)SC1C(Sc1ccccc1)c1ccc(Cl)cc1 ; read by: agar diffusion / agar ; tested at: 100 mg/mL ; strain or isolate: ATCC 2091 ; result: 16–20 mm
Clc1ccccc1C(c1ccccc1)(c1ccccc1)n1ccnc1 ; read by: agar diffusion / agar ; tested at: 10 mg/mL ; strain or isolate: RCMB 005002 ; result: 26.1 mm
CCC(C)[C@H](NC(=O)CSC1=C(C)C(=O)c2cccc(OC)c2C1=O)C(=O)OC ; read by: agar diffusion ; tested at: 100 µg/well ; strain or isolate: FRCA ; result: 0 mm
O=C1NC(=S)SC1C(Sc1ccccc1)c1c(Cl)cccc1Cl ; read by: agar diffusion / agar ; tested at: 100 mg/mL ; strain or isolate: ATCC 2091 ; result: 10–15 mm
CCCc1c(N2CCN(CC)CC2)[nH]c(=O)[nH]c1=O ; read by: agar diffusion / agar ; tested at: 200 µg/disc ; strain or isolate: IFO 0583 ; result: <10 mm
CC(C)=CCOc1ccc(C2CC(=O)c3ccc(O)cc3O2)cc1 ; read by: agar diffusion / agar ; tested at: 100 µg/mL ; strain or isolate: ATCC 10231 ; result: 0 mm
Cc1nc2ccc(Br)cc2c(=O)n1-c1ccc([N+](=O)[O-])cc1 ; read by: agar diffusion / agar ; tested at: 50 µg/mL ; result: 15.75 mm
CC(C)=CCOc1ccc(C2CC(=O)c3c(O)cc(O)cc3O2)cc1O ; read by: agar diffusion / agar ; tested at: 100 µg/mL ; strain or isolate: ATCC 10231 ; result: 10 mm
Clc1ccccc1C(c1ccccc1)(c1ccccc1)n1ccnc1 ; read by: agar diffusion / agar ; tested at: 100 µg/disc ; strain or isolate: IFO 0583 ; result: 21 mm
NC(=NCCCCCCN=C(N)/N=C(\N)Nc1ccc(Cl)cc1)/N=C(\N)Nc1ccc(Cl)cc1 ; read by: agar diffusion ; tested at: 2000 µg/mL ; strain or isolate: ATCC 10231 ; result: 11.33 mm
CCCCc1nc(Cl)c(-c2cc(-c3ccc(OC)cc3)nc3c2C(=O)c2ccccc2-3)n1Cc1ccccc1 ; read by: agar diffusion ; tested at: 10 µg/disc ; strain or isolate: MTCC 7253 ; result: 12 mm
Cc1ccc(N2NOC(=O)C2S(=O)(=O)Nc2ccc(-n3c(-c4cccc(Cl)c4)nc4ccccc4c3=O)cc2)cc1 ; read by: agar diffusion ; tested at: 250 µg/mL ; strain or isolate: MTCC 227 ; result: 25 mm
CCN(CC)N1C(=O)C(C(Sc2ccccc2)c2ccc(Cl)cc2)SC1=S ; read by: agar diffusion / agar ; tested at: 100 mg/mL ; strain or isolate: ATCC 2091 ; result: 16–20 mm
C[C@@H]1[C@H](O)[C@@H](C)/C=C/C=C/CC/C=C/C=C/C=C/C=C/C(O[C@H]2O[C@H](C)[C@@H](O)[C@H](N)[C@@H]2O)CC2O[C@](O)(CC(O)C(O)CCC(O)CC(O)CC(O)CC(=O)O[C@H]1C)CC(O)C2C(=O)O ; read by: agar diffusion ; tested at: 10 µg/disc ; strain or isolate: MTCC 7253 ; result: 8 mm
C[C@@H]1[C@H](O)[C@@H](C)/C=C/C=C/CC/C=C/C=C/C=C/C=C/C(O[C@H]2O[C@H](C)[C@@H](O)[C@H](N)[C@@H]2O)CC2O[C@](O)(CC(O)C(O)CCC(O)CC(O)CC(O)CC(=O)O[C@H]1C)CC(O)C2C(=O)O ; read by: agar diffusion ; tested at: 0.00001 µg/mL ; strain or isolate: CCMB 226 ; result: 24.2 mm
O=C(O)Cc1ccc(-n2cnc3ccccc3c2=O)cc1 ; read by: agar diffusion / agar ; tested at: 10 mg/mL ; strain or isolate: DMBC 005002 ; result: 12.8 mm
CCCCc1nc(Cl)c(-c2cc(-c3cccc(Br)n3)nc3c2C(=O)c2ccccc2-3)n1Cc1ccccc1 ; read by: agar diffusion ; tested at: 10 µg/disc ; strain or isolate: MTCC 7253 ; result: 11 mm
O=c1c(O)c(-c2ccco2)oc2ccc(Cl)cc12 ; read by: agar diffusion ; tested at: 100 µg/mL ; result: 18 mm
COc1ccc(-n2c(C)nc3ccc(Br)cc3c2=O)cc1 ; read by: agar diffusion / agar ; tested at: 50 µg/mL ; result: 17.76 mm
Cc1ccc([O][Hg][Cl])c(/C=N/NC(=O)Nc2nc(-c3ccccc3)cs2)c1 ; read by: agar diffusion ; tested at: 100 µg/mL ; result: 22 mm
Cc1ccc(N2NOC(=O)C2S(=O)(=O)Nc2nc3ccc(C)cc3s2)cc1 ; read by: agar diffusion ; tested at: 250 µg/mL ; strain or isolate: MTCC 227 ; result: 23 mm
CCOC(=O)N1CCN(c2[nH]c(=O)[nH]c(=O)c2CC)CC1 ; read by: agar diffusion / agar ; tested at: 200 µg/disc ; strain or isolate: IFO 0583 ; result: <10 mm
C[C@@H]1[C@H](O)[C@@H](C)/C=C/C=C/CC/C=C/C=C/C=C/C=C/C(O[C@H]2O[C@H](C)[C@@H](O)[C@H](N)[C@@H]2O)CC2O[C@](O)(CC(O)C(O)CCC(O)CC(O)CC(O)CC(=O)O[C@H]1C)CC(O)C2C(=O)O ; read by: agar diffusion ; tested at: 30 µg/disc ; strain or isolate: ATCC 10231 ; result: 25 mm
O=c1c(O)c(-c2ccccc2)oc2ccccc12 ; read by: agar diffusion ; tested at: 100 µg/mL ; result: 13 mm
CC(C)c1c(=O)[nH]c(=O)n2[nH]nnc12 ; read by: agar diffusion / agar ; tested at: 200 µg/disc ; strain or isolate: IFO 0583 ; result: <10 mm
C[C@@H]1[C@H](O)[C@@H](C)/C=C/C=C/CC/C=C/C=C/C=C/C=C/C(O[C@H]2O[C@H](C)[C@@H](O)[C@H](N)[C@@H]2O)CC2O[C@](O)(CC(O)C(O)CCC(O)CC(O)CC(O)CC(=O)O[C@H]1C)CC(O)C2C(=O)O ; read by: agar diffusion ; tested at: 35 µg/disc ; result: 18 mm
CCCc1c(N2CCN(c3ccccc3)CC2)[nH]c(=O)[nH]c1=O ; read by: agar diffusion / agar ; tested at: 200 µg/disc ; strain or isolate: IFO 0583 ; result: <10 mm
CC(C)(CN=C/C=C/c1ccccc1[N+](=O)[O-])CN=C/C=C/c1ccccc1[N+](=O)[O-] ; read by: agar diffusion ; tested at: 5 mg/disc ; result: 18 mm
CCN(CC)N1C(=O)C(C(Sc2ccccc2)c2c(Cl)cc(C)cc2Cl)SC1=S ; read by: agar diffusion / agar ; tested at: 100 mg/mL ; strain or isolate: ATCC 2091 ; result: 16–20 mm
C[C@@H]1[C@H](O)[C@@H](C)/C=C/C=C/CC/C=C/C=C/C=C/C=C/C(O[C@H]2O[C@H](C)[C@@H](O)[C@H](N)[C@@H]2O)CC2O[C@](O)(CC(O)C(O)CCC(O)CC(O)CC(O)CC(=O)O[C@H]1C)CC(O)C2C(=O)O ; read by: agar diffusion / agar ; tested at: 40000 µg/mL ; result: 22 mm
COc1ccc(-c2oc3ccc(Cl)cc3c(=O)c2O)cc1 ; read by: agar diffusion ; tested at: 100 µg/mL ; result: 16 mm
CN1CC2=C(C(=O)c3ccccc3C2=O)C12C(=O)c1ccccc1C2=O ; read by: agar diffusion ; tested at: 50 µg/mL ; result: 0 mm
CCCc1c(N2CCN(c3ccccc3OC)CC2)[nH]c(=O)[nH]c1=O ; read by: agar diffusion / agar ; tested at: 200 µg/disc ; strain or isolate: IFO 0583 ; result: <10 mm
Clc1ccc(C(Cn2ccnc2)OCc2ccsc2Cl)c(Cl)c1 ; read by: agar diffusion / agar ; tested at: 0.5 mg/mL ; result: 28 mm
CC(C)CCOc1ccc(C2CC(=O)c3c(O)cc(O)cc3O2)cc1 ; read by: agar diffusion / agar ; tested at: 100 µg/mL ; strain or isolate: ATCC 10231 ; result: 0 mm
CCN(CC)N1C(=O)C(C(Sc2ccccc2)c2ccccc2)SC1=S ; read by: agar diffusion / agar ; tested at: 100 mg/mL ; strain or isolate: ATCC 2091 ; result: 10–15 mm
C(/C=C/c1ccccc1)=NCCNCCN=C/C=C/c1ccccc1.[Cl][Hg][Cl] ; read by: agar diffusion ; tested at: 30000 µg/mL ; result: 32 mm
O=C(O)c1cn(C2CC2)c2cc(N3CCNCC3)c(F)cc2c1=O ; read by: agar diffusion ; tested at: 5 µg ; strain or isolate: ATCC 10231 ; result: 6 mm

A second listing of 6 rows from above:

structure | read by | tested at | strain or isolate | result
Cc1cc(Cl)nc(NC(c2ccc(Cl)cc2)P(=O)(Oc2ccccc2)Oc2ccccc2)n1 | agar diffusion / agar | 10 µg/mL |  | 10 mm
COc1ccc(-n2cnc3ccccc3c2=O)cc1OC | agar diffusion / agar | 10 mg/mL | DMBC 005002 | 10.5 mm
O=c1c(O)c(-c2ccc(F)cc2)oc2ccc(Cl)cc12 | agar diffusion | 100 µg/mL |  | 15 mm
CCOC(=O)N1CCN(c2[nH]c(=O)[nH]c(=O)c2CC)CC1 | agar diffusion / agar | 200 µg/disc | IFO 0583 | <10 mm
C=C1CC[C@H]2O[C@]2(C)CC[C@@H]2[C@@H]1CC2(C)C | agar diffusion | 35 µg/disc |  | 33 mm
O=c1c(O)c(-c2ccco2)oc2ccccc12 | agar diffusion | 100 µg/mL |  | 18 mm

Zone: diameter of growth inhibition. An empty or dashed field is not shown. Lines come from different laboratories, so protocols vary.